According to US8901042B2, “High throughput screen for measuring membrane effects” (Cornell University, priority 2009, dated 2014):

Test system: gramicidin A (gA) channels in DC22:1PC lipid bilayer vesicles
Test: gramicidin-based stopped-flow fluorescence quench assay (Tl+ influx into ANTS-filled, gA-doped LUVs)
Format: biochemical, Bacillus brevis
Settings: at the concentration where the molecules double or half the rate of fluorescence quenching
Protocol: 24 hours before fluorescence measurements, ANTS-filled liposomes were mixed 1:20 in S_Na_Buffer. For the portion of liposomes that are to be doped with gramicidin, the desired amount of gramicidins was added at this time. […] Gramicidin diluted in DMSO was used, but the added DMSO was kept to an absolute minimum (<0.1% of volume) as DMSO of >0.5% affects bilayer properties. The solution was stored at 12-13° C. in the dark.
The modifier in question was diluted in DMSO. The same amount of DMSO was added to all samples, including control.
For each condition: • 1. Use 1.5 mL of diluted ANTS-liposomes for each condition (compound, concentration). • 2. Add compound at the desired concentration and incubate for 10 min at 25° C. (keep in dark), or DMSO for controls. • 3. Record fluorescence, x8 repeats, with S_Na_Buffer (the first four should be removed due to mixing). • 4. Record fluorescence, x12 repeats, with S_Tl_Quencher (the first four should also be removed due to mixing).
Generate fluorescent liposomes. […] 1,2-Dierucoyl-sn-Glycero-3-Phosphocholine lipids, from Avanti Polar Lipids (Alabaster, Ala.), were bought in a lipid/chloroform solution and used without further purification. For each batch of vesicles, the lipid/chloroform solution was dried under nitrogen and then further dried in a dessicator under vacuum overnight to fully remove the chloroform. The dried lipid film was rehydrated in 100 mM NaNO3, 25 mM ANTS, 10 mM HEPES at pH 7.0 at room temperature over night, volume was adjusted to give a 10 mM lipid concentration. […] Before the fluorescence experiments ANTS-LUV stock was diluted 1:20 with 140 mM NaNO3, 10 mM HEPES, pH 7.0 buffer. […]
The fluorescence was measured using a SX.20 Stopped-Flow Spectrometer (Applied Photophysics, Leatherhead, UK), with a 150-W Xenon lamp, a two sample rapid mixing unit with machine dead time˜1.2 ms and a thermostatting water bath set to 25° C. The samples were excited at X=352 nm and fluorescence was recorded though λ=455 nm high pass filter with Pro-Data control software from Applied Photophysics, sampling 5000 points a second. For each sample at least 10 repeated mixing trials were measured, from two or more vesicle preparations. Each repeat was separately analyzed using MATLAB v7.4, The MathWorks, Inc (Natick, Mass.). The time course of fluorescence quenching was normalized to the average fluorescence without quencher, for that particular sample, and the first 2-100 ms of the time course was fitted with a stretched exponential. The initial influx rate is quantified as the rate of the stretched exponential at 2 ms.

Row | SMILES | Lipids/drug: number of lipids per molecule at their active concentration (~1/mAM)
1 | C[S+](C)[O-] [Dimethyl sulfoxide] | 90
2 | Oc1cc2c(cc1O)CN(C(=S)NCCc1ccc(Cl)cc1)CCC2 [Capsazepine] | 15
3 | OC(c1cc(C(F)(F)F)nc2c(C(F)(F)F)cccc12)C1CCCCN1 (stereo not shown) [Mefloquine] | 8
4 | O=c1c(-c2ccc(O)cc2)coc2cc(O[C@@H]3O[C@H](CO)[C@@H](O)[C@H](O)[C@H]3O)cc(O)c12 [Genistin] | 200
